Pooled drug test results. Numbers come from NIAID ChemDB, via PubChem.

All rows: tests on isolated targets; organism: Hepatitis C virus

ICn: concentration for n% inhibition. Inhibition is in % at the dose shown (toxicity tests: loss of growth or viability). Two numbers with a dash give a range or band. Neighbouring rows are from separate reports. An empty or dashed field is not shown.

smiles	target	read-out	tested at	result
COC(=O)c1cnn2c(C(F)(F)F)cc(-c3ccccc3)nc12	RNA-dependent RNA polymerase	IC50		>10 µM
O=C(Nc1cscc1-c1nc(C(=O)O)c(O)c(=O)[nH]1)NS(=O)(=O)c1cccc(Cl)c1Cl	HCV polymerase	IC50		<25 µM
CNC(=O)c1c(-c2ccc(F)cc2)oc2cc(NC(C)=O)c(OC)cc12	Nonstructural protein 5B	IC50		≤0.5 µM
O=C(O)c1ccc2c(c1)nc(-c1ccc3ncc(-c4ccccc4)cc3c1)n2C1CCCCC1	NS5B polymerase	inhibition	33 µM	94.16%
CN(C(=O)c1ccc(C(F)(F)F)cc1F)c1cc(-c2ccccc2)sc1C(=O)O	NS3 ATPase	IC50		5–20 µM
c1ccc(Oc2ccc(-c3cnc4c(-c5nn[nH]n5)cnn4c3C3CCCCC3)cc2)cc1	RNA-dependent RNA polymerase	IC50		<1 µM
CCC(=O)N(Cc1ccc(C)cc1)c1cc(-c2ccccc2)sc1C(=O)O	NS3 ATPase	IC50		5–20 µM
O=C(O)c1cnn2c(-c3ccccc3-c3ccc(Cl)cc3)ccnc12	RNA-dependent RNA polymerase	IC50		>10 µM
CNC(=O)c1c(-c2ccccc2)oc2ccc(OC)cc12	Nonstructural protein 5B	IC50		≤0.5 µM
O=C(O)c1cc2nc(-c3ccc(-c4cccc(OC(F)(F)F)c4)cc3)c(C3CCCCC3)c(=O)n2[nH]1	RNA-dependent RNA polymerase	IC50		1–10 µM
O=C(NC(Cc1ccc(C(=O)c2ccccc2)cc1)C(=O)O)c1ccc2c(c1)nc(-c1ccc3nc(-c4ccccc4)cnc3c1)n2C1CCCCC1	NS5B polymerase	inhibition	100 µM	98.41%
COc1cccc(-c2cc(-c3ccc(Cl)cc3)nc3cc(C(=O)O)nn23)c1	RNA-dependent RNA polymerase	IC50		>10 µM
Cc1cccc(CN(C(=O)C(C)C)c2cc(-c3ccccc3)sc2C(=O)O)c1	NS3 ATPase	IC50		5–20 µM
COCCOc1ccc(-c2ccc(Cl)cc2)c(-c2ccc3cc(-c4nc5cc(C(=O)O)ccc5n4C4CCCCC4)ccc3n2)c1	NS5B polymerase	inhibition	33 µM	97.5%
O=C(Nc1cscc1-c1nc(C(=O)O)c(O)c(=O)[nH]1)N[C@H]1c2ccccc2C[C@H]1O	HCV polymerase	IC50		<25 µM
CNC(=O)c1c(-c2ccc(F)cc2)oc2cc(N(C(C)C)S(C)(=O)=O)c(OC)cc12	Nonstructural protein 5B	IC50		≤0.5 µM
Cc1ccc(COC(=O)Nc2ccsc2-c2nc(C(=O)O)c(O)c(=O)[nH]2)cc1	HCV polymerase	IC50		<25 µM
CNC(=O)c1c(-c2ccc(F)cc2)oc2cc(N(C)S(C)(=O)=O)c(OCCn3cccn3)cc12	Nonstructural protein 5B	IC50		≤0.5 µM
Nc1cc(-c2ccccc2)sc1-c1ccc2cc(-c3nc4cc(C(=O)O)ccc4n3C3CCCCC3)ccc2n1	NS5B polymerase	inhibition	100 µM	104%
CN(C(=O)c1ccccc1Br)c1cc(-c2ccccc2)sc1C(=O)O	NS3 ATPase	IC50		5–20 µM
COc1ccc(CCC(=O)Nc2cccc(-c3nc(C(=O)O)c(O)c(=O)[nH]3)c2)cc1OC	HCV polymerase	IC50		<100 µM
CCOCCOc1ccc(-c2ccc(Cl)cc2)c(-c2ccc3cc(-c4nc5cc(C(=O)O)ccc5n4C4CCCCC4)ccc3n2)c1	NS5B polymerase	inhibition	33 µM	100.8%
Cc1ccccc1NC(=O)Nc1cccc(-c2nc(C(=O)O)c(O)c(=O)[nH]2)c1	HCV polymerase	IC50		<100 µM
O=C(O)c1sc(-c2ccccc2)cc1NC(=O)N1CCN(c2cccc(C(F)(F)F)c2)CC1	NS3 ATPase	IC50		5–20 µM
c1ccc(COc2ccc(-c3cnc4c(-c5nn[nH]n5)cnn4c3C3CCSCC3)cc2)cc1	RNA-dependent RNA polymerase	IC50		1–10 µM
O=C(O)c1ccc2c(c1)nc(-c1ccc3nc(-c4cnccn4)ccc3c1)n2C1CCCCC1	NS5B polymerase	inhibition	100 µM	98.23%
O=C(NCC(c1ccccc1)c1ccccc1)Nc1cscc1-c1nc(C(=O)O)c(O)c(=O)[nH]1	HCV polymerase	IC50		<25 µM
COc1ccc(-c2ccc(-c3ccnc4cc(C(=O)O)nn34)cc2)cc1	RNA-dependent RNA polymerase	IC50		>10 µM
CN(C)CCNC(=O)c1ccc(-c2ccc(Cl)cc2)c(-c2ccc3cc(-c4nc5cc(C(=O)O)ccc5n4C4CCCCC4)ccc3n2)c1	NS5B polymerase	inhibition	33 µM	98.35%
O=C(O)c1nc(-c2cccc(Cc3ccccc3)c2)[nH]c(=O)c1O	HCV polymerase	IC50		<100 µM

For reference, 3 entries again:

smiles,target,read-out,tested at,result
Nc1cc(-c2ccccc2)sc1-c1ccc2cc(-c3nc4cc(C(=O)O)ccc4n3C3CCCCC3)ccc2n1,NS5B polymerase,inhibition,100 µM,104%
CCOCCOc1ccc(-c2ccc(Cl)cc2)c(-c2ccc3cc(-c4nc5cc(C(=O)O)ccc5n4C4CCCCC4)ccc3n2)c1,NS5B polymerase,inhibition,33 µM,100.8%
CCC(=O)N(Cc1ccc(C)cc1)c1cc(-c2ccccc2)sc1C(=O)O,NS3 ATPase,IC50,,5–20 µM